# Measurements from article PMC8546149 (Nature Communications, 2021).
# Assay: general procedure: Fmoc solid-phase peptide synthesis; SynPhase PSDRAM lanterns and Rink-amide resin; Wang resin for RhB-PB10; HCTU/DIEA; DIC/Oxyma for RhB-PB10
# Details: conjugation step
row,Substance,conjugation yield [%]
1,Van-C(fMLF-Leu-Tz),47
2,Van-C(H-MLFG-Tz),45
3,Van-C(fMLFG-Tz),47
4,Van-C(fMLFG-(PEG3)2-Tz),33
5,Van-C(fMLFG-PEG4-Tz),42
6,Van-C(fMLF-Pro-Tz),46
7,Van-C(fNle-LFG-Tz),37
8,fMLF-Lys(B*)-NH2,84
9,Van-C(fML-Phe(4-F)-G-Tz),47
10,Van-C(fMLFG-PEG3-Tz),38
11,Van-C(fM-Nle-FG-Tz),42
12,Van-C(fM-Cha-FG-Tz),36
13,Van-C(fML-Tyr-G-Tz),46
14,Van-C(fMLF-Lys-Tz),44

# Same assay, conditions: conjugation step, cyclic, sequence written open
row,Substance,conjugation yield [%]
1,Van-V(fMLFG-PEG3-Tz),30
2,Van-V(fMLFG-(PEG3)2-Tz),17
3,Van-N(fMLFG-Tz),36
4,Van-N(fMLFG-(PEG3)2-Tz),34
5,Van-V(fMLFG-Tz),20
6,Van-N(fMLFG-PEG3-Tz),28

# Same assay, conditions: whole synthesis
row,Substance,isolated yield
1,f-Nle-LFG-Pra-NH2,34%*
2,fMLF-Lys-Pra-NH2,40%
3,fMLFG-Pra-NH2,14%
4,fML-Phe(4-F)-G-Pra-NH2,32%
5,fMLFG-PEG3-Pra-NH2,13%
6,H-MLFG-Pra-NH2,46%
7,fMLF-Pro-Pra-NH2,41%
8,fMLFG-(PEG3)3-Pra-NH2,15%
9,fM-Nle-FG-Pra-NH2,34%*
10,fML-Tyr-G- Pra-NH2,43%
11,fMLF-Leu-Pra-NH2,25%*
12,fM-Cha-FG-Pra-NH2,31%*

# Marks after values point to notes of the source that are not given here.
